Pooled drug test results. Numbers come from NIAID ChemDB, via PubChem.

Shared fields: tests in culture; species: HIV-1

An empty or dashed field is not shown.

compound,read by,strain or isolate,measure,cell line,setting,mutations,value
Nc1ncnc2c1ncn2CCOCP(=O)(O)O,p24 / syncytia,IIIB,EC50,PBL,,,2.5 µM
O=C(CSc1nnnn1-c1cccc(Cl)c1Cl)Nc1ccccc1[N+](=O)[O-],p24,,EC50,MT-4,10% FBS,,<0.078 µM
COc1ccc(C(=O)N2CCN(c3ccc4c(c3)CCC(=O)N4)CC2)cc1OC,cytopathic effect / XTT,IIIB,EC50,CEM + CEM-SS,,,6.34 µg/mL
N#Cc1ccc(Nc2nc(Oc3ccc(-c4ccc(C#N)cc4)cc3[N+](=O)[O-])c3sccc3n2)cc1,MTT,IIIB,EC50,MT-4,,E138K,0.0065 µM
Nc1ccn([C@H]2CO[C@@H](CO)S2)c(=O)n1,cytopathic effect / MTT,IIIB,EC50,MT-4,,,20 µM
N/C(=N/O)c1cc(CN2C(=O)N[C@H](CCc3ccccc3)[C@@H](O)[C@H]2Cc2ccccc2)ccc1F,cytopathic effect / MTT,RF,EC50,MT-2,,,<3.78 µM
Cc1cc(C)c(-n2nnnc2SCC(=O)Nc2ccccc2I)c(C)c1,p24,,EC50,MT-4,10% FBS,,<0.312 µM
CCNc1cccnc1N1CCN(C(=O)c2cc3cc(OC)ccc3[nH]2)CC1,p24,BaL,EC50,Macrophage + Monocytes/macrophages,,RT-V106A,>25.6 µM
Cc1cc(C)c(-n2nnnc2SCC(=O)Nc2ccc([N+](=O)[O-])cc2C)c(C)c1,p24,,EC50,MT-4,10% FBS,,<1.25 µM
CCCCCCCCCCCCCCCCCCCCCCC(=O)O[C@@H]1[C@@H](C)[C@@]2(O)[C@@H](C=C(COC(C)=O)C[C@]3(O)C(=O)C(C)=C[C@@H]23)[C@@H]2C(C)(C)[C@]12O,p24 / ELISA,IIIB,EC50,C8166,,,0.873 µM
Cn1c2ccccc2c2c1cc(C#N)c(=O)n2-c1ccc([N+](=O)[O-])cc1,luciferase,NNRTI-resistant,EC50,HeLa,,RT-K103N,0.0115 µM
C[C@H](Cn1cnc2c(N)ncnc21)OCP(=O)(O)O,cytopathic effect / MTT,,EC50,MT-4,,RD 23-RTwt,0.84 µM
Nc1cc(CN2C(=O)N(Cc3ccc(F)c(N)c3)[C@H](Cc3ccccc3)[C@H](O)[C@H]2CCc2ccccc2)ccc1F,cytopathic effect / MTT,RF,EC50,MT-2,,,<0.036 µM
CCOP(=O)(CO[C@@H]1[C@@H](O)[C@@H](O)[C@H](n2cnc3c(N)ncnc32)C12CC2)OCC,,WILD TYPE,EC50,,,,88.9 µM
Cc1ccnc2c1NC(=O)c1cccnc1N2C1CC1,cytopathic effect / MTT,UMGL CLIN ISOL,EC50,C8166,,,0.04 µM
CCO/N=C(\c1ccc(Br)cc1)C1CCN(C2(C)CCN(C(=O)c3c(C)cc[n+]([O-])c3C)CC2)CC1,p24,RU570 R5 CLADE G,EC50,PBMC,,,0.018 µM
Cc1ccnc2c1NC(=O)c1cccnc1N2C1CC1,MTT,IIIB,EC50,MT-4,,F227L V106A,>15.9 µM
NOCc1ccccc1,cytopathic effect / MTT,IIIB,EC50,MT-4,,,>82.3 µg/mL
Cc1cc(C)c(Nc2nc(Nc3ccc(C#N)cc3)ncc2Cl)c(C)c1,cytopathic effect / MTT,NNRTI-resistant (RT K103N Y181C),EC50,MT-4,,RT-K103N Y181C,0.114 µM
CC(C)Nc1cccnc1N1CCN(C(=O)c2cc3cc(NS(C)(=O)=O)ccc3[nH]2)CC1,p24,BaL,EC50,PBMC,,RT-P236L,7.3 µM
CC1=C(C(=O)Nc2ccc(Cl)c(C(=O)OC(C)C)c2)SCCO1,,RF,EC50,CEM + CEM-SS,,,0.18 µM
NOCc1cccc(Cl)c1Cl,cytopathic effect / MTT,IIIB,EC50,MT-4,,,8.99 µg/mL
C[C@H](Cn1cnc2c(N)ncnc21)OCP(=O)(O)O,p24 / syncytia,IIIB,EC50,PBL,,,0.37 µM
Cc1cc(C)c(-n2nnnc2SCC(=O)Nc2ccc(C(=O)NCCCN(C)C)cc2Cl)c(C)c1,p24,,EC50,MT-4,10% FBS,,<0.062 µM
N#Cc1cc2[nH]c3ccccc3c2n(-c2ccc([N+](=O)[O-])cc2)c1=O,luciferase,Recombinant,EC50,HeLa,,RT-V118I M184V,0.58 µM
Nc1ccn([C@H]2CC[C@@H](CO)O2)c(=O)n1,cytopathic effect / MTT,HXB2,EC50,MT-4,,HXB2-RTwt,0.89 µM
Cc1c(Cl)cccc1-n1nnnc1SCC(=O)Nc1ccccc1[N+](=O)[O-],p24,,EC50,MT-4,50% human serum,,<0.031 µM
CC(C)(C)C(=O)SCCOP(=O)(CO[C@@H]1C=C[C@H](n2cnc3c(N)ncnc32)C12CC2)OCCSC(=O)C(C)(C)C,,WILD TYPE,EC50,,,,12.3 µM
Cc1cc(C)c(-n2nnnc2SCC(=O)Nc2ccc(S(N)(=O)=O)cc2)c(C)c1,p24,,EC95,MT-4,50% human serum,,>5 µM
N#Cc1ccc(Nc2nc(N)nc(Cc3c(Cl)cccc3Cl)n2)cc1,cytopathic effect / MTT,NNRTI-resistant (RT K103N Y181C),EC50,MT-4,,RT-K103N Y181C,1.4 µM
NOCc1cc(Cl)ccc1Cl,cytopathic effect / MTT,IIIB,EC50,MT-4,,,7.96 µg/mL
NC(=O)c1cc(CN2C(=O)N(Cc3ccc(F)c(C(N)=O)c3)[C@H](Cc3ccccc3)[C@H](O)[C@H]2CCc2ccccc2)ccc1F,cytopathic effect / MTT,RF,EC50,MT-2,,,<0.49 µM
Cc1cn([C@H]2C[C@H](N=[N+]=[N-])[C@@H](CO)O2)c(=O)[nH]c1=O,β-galactosidase,SUM13,EC50,HELA/CD4 + HELA CD4+,,,8 µg/mL
O=C1N(Cc2ccc(CO)cc2)[C@H](Cc2ccccc2)[C@H](O)[C@@H](O)[C@@H](Cc2ccccc2)N1Cc1ccc(CO)cc1,virus yield,IIIB,EC50,PBMC,,,<0.14 µM
Nc1ccn([C@H]2CC[C@@H](CO)O2)c(=O)n1,p24,HXB2-D (RT K65R M184V),EC50,CBMC,,RT-K65R M184V,2.9 ± 0.4 µM
Cc1cc(-c2ccc(C#N)cc2)cc(C)c1Oc1nc(Nc2ccc(C#N)cc2)nc2ccsc12,MTT,IIIB,EC50,MT-2,,Y181C,0.0571 µM
Cc1cn([C@H]2C[C@H](N=[N+]=[N-])[C@@H](CO)O2)c(=O)[nH]c1=O,luciferase,NRTI resistant,EC50,HeLa,,RT-D67N T69N M184V T215F K219Q,0.079 µM
Cc1cn([C@H]2C=C[C@@H](CO)O2)c(=O)[nH]c1=O,cytopathic effect / MTT,IIIB,EC50,MT-4,,,0.81 µM
Nc1ccc(CN2C(=O)N(Cc3ccc(N)c(F)c3)[C@H](Cc3ccccc3)[C@H](O)[C@H]2CCc2ccccc2)cc1F,cytopathic effect / MTT,RF,EC50,MT-2,,,<0.539 µM

For reference, 6 entries again:

compound,read by,strain or isolate,measure,cell line,setting,mutations,value
Nc1ncnc2c1ncn2CCOCP(=O)(O)O,p24 / syncytia,IIIB,EC50,PBL,,,2.5 µM
O=C1N(Cc2ccc(CO)cc2)[C@H](Cc2ccccc2)[C@H](O)[C@@H](O)[C@@H](Cc2ccccc2)N1Cc1ccc(CO)cc1,virus yield,IIIB,EC50,PBMC,,,<0.14 µM
C[C@H](Cn1cnc2c(N)ncnc21)OCP(=O)(O)O,cytopathic effect / MTT,,EC50,MT-4,,RD 23-RTwt,0.84 µM
N#Cc1cc2[nH]c3ccccc3c2n(-c2ccc([N+](=O)[O-])cc2)c1=O,luciferase,Recombinant,EC50,HeLa,,RT-V118I M184V,0.58 µM
Cc1ccnc2c1NC(=O)c1cccnc1N2C1CC1,MTT,IIIB,EC50,MT-4,,F227L V106A,>15.9 µM
N#Cc1ccc(Nc2nc(N)nc(Cc3c(Cl)cccc3Cl)n2)cc1,cytopathic effect / MTT,NNRTI-resistant (RT K103N Y181C),EC50,MT-4,,RT-K103N Y181C,1.4 µM

Neighbouring rows are from separate reports. ECn: concentration that inhibits the pathogen or its effect by n%.